Reference: PubChem BioAssay AID1259414 (Drosophila RNAi Screening Center, 2018)

Purpose: 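Fly genes that alter Wolbachia amount inside host cells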 (primary screen)
Cell system: Drosophila JW18 cells infected with Wolbachia
Reagent: long dsRNA against Drosophila genes, 0.25 µg dsRNA per well of a 384-well plate
Time to read-out: 5 days
Conditions: cells persistently infected with Wolbachia before knock-down; no added drug
Measurement: 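Automated imaging of bacterial rRNA staining divided by host cell count, reported as plate-normalised robust z-score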
Direction: Wolbachia per cell robust z: higher = more Wolbachia per host cell than the plate typical
Hit rule: 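Hit when robust z is 1.5 or more, or -1.5 or less, in at least two of three replicates; excludes dsRNAs with several or no targets, genes not expressed in JW18 and well A1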
The screen tested about 24,000 reagents; below is a random part of those that have a named target and a result. Of all reagents, about 1,210 (5%) got an active call. 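Inactive calls also include excluded dsRNAs with several or no targets, genes unexpressed in JW18, and well A1, regardless of score.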 Reagents against one gene are numbered here. A plus sign joins genes that one reagent is predicted to hit.

target gene	reagent	Wolbachia per cell robust z, rep 1	Wolbachia per cell robust z, rep 2	Wolbachia per cell robust z, rep 3	call
spz4	1	0.479	-0.615	0.981	inactive
spz4	2	-1.65	-0.571	-1.73	active
Cyp28c1	1	-0.312	-0.31	-1.32	inactive
Rab3-GAP	1	-0.152	-0.833	0.269	inactive
Rab3-GAP	2	-3.15	0.739	0.28	inactive
tun	1	-0.313	-0.446	0.362	inactive
tun	2	-0.849	-0.347	-2.6	inactive
CG18808	1	0.427	0.238	-4.88	inactive
CG18748	1	-2.36	0.294	0.831	inactive
smo	1	-2.26	0.046	0.516	inactive
smo	2	-1.22	-1.59	-0.784	inactive
CG11370	1	-0.00289	0.548	-0.702	inactive
CG11370	2	-1.8	-1.76	-4.44	inactive
CG11404	1	0.0572	0.0452	0.487	inactive
CG11404	2	0.123	-0.769	-1.21	inactive
Psf1 + Klp61F + CG32318	1	-0.879	-1.13	0.8	inactive
chinmo	1	-0.471	0.598	-0.416	inactive
chinmo	2	0.0708	-0.244	0.48	inactive
chinmo	3	-0.219	0.409	-0.11	inactive
chinmo	4	1.45	-8.9	0.659	inactive
CG8860	1	0.153	0.505	-0.0781	inactive
CG8860	2	-0.357	0.781	1.25	inactive
dve	1	-0.988	-1.16	-0.973	inactive
dve	2	-7.06	0.575	0.152	inactive
Vang	1	1.46	1.01	0.783	inactive
Grl65a	1	0.937	0.693	0.49	inactive
Grl65a	2	-0.0121	-0.826	-0.862	inactive
CG30020	1	0.858	-0.416	-1.26	inactive
CG30020	2	-0.306	0.72	-4.33	inactive
fok	1	-2.12	-4.35	-1.5	active
fok	2	-0.339	-1.02	-0.544	inactive
lncRNA:CR43144	1	-1.68	-2.79	-1.01	active
CG15563	1	0.538	0.76	-4.16	inactive
CG15563	2	-1.77	0.646	-1.47	inactive
FucTC	1	0.0488	-0.407	-0.112	inactive
FucTC	2	-5.97	0.411	0.35	inactive
CG42337	1	1.67	-0.612	1.06	inactive
CG42337	2	-0.995	-4.27	-0.725	inactive
CG42337	3	-2.17	-0.166	0.297	inactive
CG31473	1	-0.574	0.675	-0.392	inactive
CG31473	2	0.938	0.0466	-0.944	inactive
CG43894	1	0.307	0.749	0.202	inactive
CG43894	2	1.41	1.31	0.559	inactive
CG43894	3	-0.51	-1.48	-2.14	inactive
twr	1	-1.33	-0.0638	-2.57	inactive
CG30091	1	0.475	0.52	0.946	inactive
CG30091	2	-1.47	-0.947	0.308	inactive
Mur2B	1	-0.537	-0.156	0.32	inactive
Mur2B	2	-0.334	-1.51	0.483	inactive
RhoGDI	1	-2.18	-0.74	0.417	inactive
CG13606	1	0.148	0.805	-0.386	inactive
CG9702	1	-0.169	-3.31	-0.807	inactive
CG32719	1	-0.0433	-0.403	-0.329	inactive
CG32719	2	-5.61	0.985	-1.02	inactive
Odj	1	-0.641	-1.51	-0.413	inactive
EMC7	1	-0.0139	-1.81	-0.182	inactive
lncRNA:CR32368	1	1.12	-0.00913	-7.29	inactive
lncRNA:CR32368	2	-0.155	0.611	0.627	inactive
CG34140 + Mkp	1	-2.03	0.0993	0.288	inactive
CR41454 + CG33217	1	-3.14	-4.32	-1.22	active
CG7675	1	-0.485	-1.12	-0.709	inactive
CG7675	2	-1.27	-1.25	-1.47	inactive
CG13984	1	-0.585	0.989	-1	inactive
CG9932	1	0.114	0.0533	0.94	inactive
Prx3	1	0.715	0.0852	0.6	inactive
Prx3	2	-0.563	-0.815	-0.957	inactive
CG15011	1	-1.73	0.539	1.17	inactive
corn	1	0.953	0.175	0.601	inactive
corn	2	-2.16	-1.32	-1.22	inactive
corn	3	-0.149	-0.936	-1.07	inactive

Laid out differently: entries from further up.
Mur2B #1
- Wolbachia per cell robust z, rep 1: -0.537
- Wolbachia per cell robust z, rep 2: -0.156
- Wolbachia per cell robust z, rep 3: 0.32
- call: inactive

Mur2B #2
- Wolbachia per cell robust z, rep 1: -0.334
- Wolbachia per cell robust z, rep 2: -1.51
- Wolbachia per cell robust z, rep 3: 0.483
- call: inactive

RhoGDI
- Wolbachia per cell robust z, rep 1: -2.18
- Wolbachia per cell robust z, rep 2: -0.74
- Wolbachia per cell robust z, rep 3: 0.417
- call: inactive

CG13606
- Wolbachia per cell robust z, rep 1: 0.148
- Wolbachia per cell robust z, rep 2: 0.805
- Wolbachia per cell robust z, rep 3: -0.386
- call: inactive

CG9702
- Wolbachia per cell robust z, rep 1: -0.169
- Wolbachia per cell robust z, rep 2: -3.31
- Wolbachia per cell robust z, rep 3: -0.807
- call: inactive

CG32719 #1
- Wolbachia per cell robust z, rep 1: -0.0433
- Wolbachia per cell robust z, rep 2: -0.403
- Wolbachia per cell robust z, rep 3: -0.329
- call: inactive

CG32719 #2
- Wolbachia per cell robust z, rep 1: -5.61
- Wolbachia per cell robust z, rep 2: 0.985
- Wolbachia per cell robust z, rep 3: -1.02
- call: inactive

Odj
- Wolbachia per cell robust z, rep 1: -0.641
- Wolbachia per cell robust z, rep 2: -1.51
- Wolbachia per cell robust z, rep 3: -0.413
- call: inactive
